Earlier results on 2 molecules are cited in publication PMC5615050 (Scientific Reports, 2017).

The test system of this data set is NA with dual mutation (H274Y and I222R). As to conditions: cited from earlier work.

For peramivir, the “fold reduction in NA inhibition caused by dual mutation (H274Y and I222R)” value is ~ 7,500 fold. Take `CCOC(=O)C1=C[C@@H](OC(CC)CC)[C@H](NC(C)=O)[C@@H](N)C1`: the “fold reduction in NA inhibition caused by dual mutation (H274Y and I222R)” value is on record as ~ 12,000 fold.
